Results on 42 compounds are retold here after patent publication US12029748B2, “Synergistic composition for maintenance of healthy balance of microflora” (KIMBERLY-CLARK WORLDWIDE, INC., priority 2017, dated 2024).

Where a SMILES comes first, the peptide text is derived from it.

The series relates to L. crispatus and E. coli. Put plainly: Therapeutic Effect Protocol: L. crispatus / E. coli co-culture, ratio after 36 hours. Particulars: pH of test solution 36 hours after inoculation; for F pH (final pH), 0.10%: nitrogen compound 0.10 wt/vol % with 1.0 wt/vol % α methyl-D glucoside; for F pH (final pH), 0.50%: nitrogen compound 0.50 wt/vol % with 1.0 wt/vol % α methyl-D glucoside; for F pH (final pH), 1.00%: nitrogen compound 1.00 wt/vol % with 1.0 wt/vol % α methyl-D glucoside. The series is classed as cell-based, Lactobacillus crispatus; E. coli. On the procedure: As used herein the term “therapeutic effect” refers to the ability of the compositions and formulations of the present invention to stimulate the growth of Lactobacillus relative E. coli measured according to the Therapeutic Effect Protocol described below. Generally, therapeutic effect is expressed as a ratio of Lactobacillus to E. coli and is desirably greater than about 2, more preferably greater than about 20 and more desirably greater than about 100.
The data in Table 1 was tested according to the Therapeutic Effect Protocol as described further herein. The nitrogen compounds were tested for their therapeutic efficacy at three different concentrations when combined with α methyl-D glucoside (1% wt/vol %). The concentrations of the nitrogen containing compounds that were tested were 1% wt/vol %, 0.5% wt/vol %, and 0.1% wt/vol %.
Colonies of L. crispatus and E. coli were prepared as follows. A colony of L. crispatus was transferred to 7 ml de Man, Rogosa & Sharpe (MRS) broth and incubated anaerobically (using BD GasPak EZ anaerobe container system with indicator) at 37° C. without shaking for 18-20 hours. A colony of E. coli was transferred to 5 ml Tryptic Soy Broth (TSB) and incubated aerobically (shaking at 100 rpm) at 37° C. for 18-20 hours.
Colonies were then inoculated as follows. Bacterial cultures were gently vortexed and 1 mL of each culture was transferred to a corresponding 2.0 mL micro-centrifuge tube and then centrifuged for two minutes at 14,500 rpm. The cultural supernatant was removed and the cell pellet was re-suspended in 1 mL of 0.95% (wt/vol %) saline. […] For L. crispatus, the pellet was re-suspended in 1 mL of 0.95% saline to achieve ˜10^7-10^8 cfu/mL. For E. coli, the pellet was re-suspended in 1 mL of 0.95% saline to achieve ˜10^8-10^9 cfu/mL.
Media were prepared as follows.
All of the ingredients in Table 2 were combined and the pH was adjusted to 6.5. […] To evaluate the effect of various nitrogen containing therapeutic agents on the growth of bacteria, the LAPT-g media, prepared as described above, was supplemented with various nitrogen containing compound therapeutic agents to a final test concentration between 0.1 and 1.0%. As initial screening measures, solubility and initial pH of each composition were checked. If a specific composition was insoluble (as detected by visual indication of precipitates or turbidity), then no further therapeutic efficacy testing was undertaken on that composition. Additionally, if the initial pH of the composition was below 5.5 (“Low”) or was above 6.5 (“High”), then no further therapeutic efficacy testing was undertaken on that composition.
Five milliliters (5 mL) of each medium was transferred to a test tube in duplicates for subsequent inoculation. A master mixture of L. crispatus and E. coli, prepared as described above, was prepared in 1,000:1 ratio. Each (5 ml) test tube was inoculated with the master mixture to give 10^5-10^6 total CFU L. crispatus and 100-1,000 total CFU E. coli per tube.
To establish a negative control, one tube was vortexed and 100 μL was removed to determine the initial cell concentrations by serial dilutions and plating (2 plates per dilution). L. crispatus is selected on MRS agar plates incubated anaerobically at 37° C. for two days. E. coli is selected on TSA plates incubated aerobically at 37° C. for one day. The co-cultures were incubated in an anaerobic container with BD GasPaks at 37° C. for 36 hours.
The effect of the α methyl-D glucoside and the nitrogen containing compound therapeutic agents on the ratio of L. crispatus to E. coli was measured 36 hours after inoculation and a final pH of the test solutions was recorded. The co-culture tube was vortexed and 100 μL was removed to determine the final cell concentrations by serial dilutions and plating (2 plates per dilution). L. crispatus is selected on MRS agar plates incubated anaerobically at 37° C. for two days.

Take `CCC(N)C(=O)O` (racemic) [DL-a-amino-n-butyric acid]: the “F pH (final pH), 0.10%” value is given as 4.5; the “F pH (final pH), 0.50%” value was 4.5; the “F pH (final pH), 1.00%” value is given as 5.5.

With `Nc1ncnc2c1ncn2[C@@H]1O[C@H](CO)[C@@H](O)[C@H]1O` [Adenosine], the “F pH (final pH), 0.10%” value amounted to 4 and the “F pH (final pH), 0.50%” value came out at 4.5.

For the compound `C[C@H](N)C(=O)N[C@@H](CC(=O)O)C(=O)O` [Ala-Asp] (H-Ala-Asp-OH), the “F pH (final pH), 0.10%” value was found to be 4.

For `C[C@H](N)C(=O)N[C@@H](CCC(=O)O)C(=O)O` [Ala-Glu] (H-Ala-Glu-OH), the “F pH (final pH), 0.10%” value is on record as 3.5.

`C[C@H](N)C(=O)N[C@@H](Cc1cnc[nH]1)C(=O)O` [Ala-His] (H-Ala-His-OH): the “F pH (final pH), 0.10%” value worked out at 4.5 and the “F pH (final pH), 0.50%” value is on record as 4.

With `NC(=O)NC1NC(=O)NC1=O` (centres unmarked) [Allantoin], the “F pH (final pH), 0.10%” value was 4.5 and the “F pH (final pH), 0.50%” value stood at 4.

As for `Nc1ccn([C@@H]2O[C@H](CO)[C@@H](O)[C@H]2O)c(=O)n1` [Cytidine], the “F pH (final pH), 0.10%” value is listed as 4; the “F pH (final pH), 0.50%” value is 4; the “F pH (final pH), 1.00%” value was 5.5.

`C[C@@H](N)C(=O)O` [D-Alanine]: the “F pH (final pH), 0.10%” value stood at 3.5; the “F pH (final pH), 0.50%” value was found to be 4.5; the “F pH (final pH), 1.00%” value is 4.5.

With `NC(=O)C[C@@H](N)C(=O)O` [D-Asparagine], the “F pH (final pH), 0.10%” value came out at 4; the “F pH (final pH), 0.50%” value worked out at 4; the “F pH (final pH), 1.00%” value came out at 4.5.

`Cl.N[C@H]1C(O)O[C@H](CO)[C@H](O)[C@@H]1O` (stereo partly drawn) [D-Galactosamine HCL]: the “F pH (final pH), 0.10%” value is reported as 3.5; the “F pH (final pH), 0.50%” value came out at 4; the “F pH (final pH), 1.00%” value came out at 4.5.

For `Cl.N[C@H]1C(O)O[C@H](CO)[C@@H](O)[C@@H]1O` (stereo partly drawn) [D-Glucosamine HCL], the “F pH (final pH), 0.10%” value was 3; the “F pH (final pH), 0.50%” value is given as 4; the “F pH (final pH), 1.00%” value was found to be 3.5.

Regarding `N[C@H](CCC(=O)O)C(=O)O` [D-Glutamic Acid], the “F pH (final pH), 0.10%” value amounted to 4.5.

`NC(=O)[C@H]1O[C@@H](O)[C@H](O)[C@@H](O)[C@@H]1O` [D-glucoronamide]: the “F pH (final pH), 0.10%” value amounted to 4; the “F pH (final pH), 0.50%” value was found to be 4; the “F pH (final pH), 1.00%” value came to 4.

In the case of `Cl.N[C@@H]1C(O)O[C@H](CO)[C@@H](O)[C@@H]1O` (stereo partly drawn) [D-mannosamine HCl], the “F pH (final pH), 0.10%” value was determined as 5; the “F pH (final pH), 0.50%” value is 5; the “F pH (final pH), 1.00%” value is reported as 5.5.

For `CC(O)C(N)=O` (stereo not drawn) [DL Lactamide], the “F pH (final pH), 0.10%” value turned out to be 4; the “F pH (final pH), 0.50%” value came out at 4; the “F pH (final pH), 1.00%” value is given as 4.

In the case of `NCCCC(=O)O` [DL-gamma-amino-n-butyric acid], the “F pH (final pH), 0.10%” value came to 4; the “F pH (final pH), 0.50%” value is on record as 3.5; the “F pH (final pH), 1.00%” value is 4.5.

For the compound `NCC(=O)N[C@@H](CC(N)=O)C(=O)O` [Gly-Asn] (H-Gly-Asn-OH), the “F pH (final pH), 0.10%” value is 4; the “F pH (final pH), 0.50%” value came to 4.5; the “F pH (final pH), 1.00%” value was found to be 4.5.

Take `NCC(=O)N[C@@H](CCC(N)=O)C(=O)O.O` [Gly-Gln] (H-Gly-Gln-OH): the “F pH (final pH), 0.10%” value stood at 4; the “F pH (final pH), 0.50%” value was determined as 4.5; the “F pH (final pH), 1.00%” value was determined as 4.5.

With `NCC(=O)N[C@@H](CCC(=O)O)C(=O)O` [Gly-Glu] (H-Gly-Glu-OH), the “F pH (final pH), 0.10%” value stood at 3.5.

As to `CSCC[C@H](NC(=O)CN)C(=O)O` [Gly-Met], the “F pH (final pH), 0.10%” value was 3.5; the “F pH (final pH), 0.50%” value was 4; the “F pH (final pH), 1.00%” value is on record as 4.5.

As for `NCC(=O)O` [Glycine], the “F pH (final pH), 0.50%” value came to 5 and the “F pH (final pH), 1.00%” value is given as 5.

On to `C[C@H](N)C(=O)N[C@H](C(=O)O)[C@@H](C)O` [H-Ala-Thr-OH] (H-Ala-Thr-OH), for which the “F pH (final pH), 0.10%” value turned out to be 3.5; the “F pH (final pH), 0.50%” value is 4; the “F pH (final pH), 1.00%” value is given as 4.5.

Regarding `OC[C@H]1O[C@@H](n2cnc3c(O)ncnc32)[C@H](O)[C@@H]1O` [Inosine], the “F pH (final pH), 0.10%” value came to 3.5; the “F pH (final pH), 0.50%” value stood at 4; the “F pH (final pH), 1.00%” value turned out to be 4.5.

As for `C[C@H](N)C(=O)O` [L-Alanine], the “F pH (final pH), 0.10%” value turned out to be 4.5; the “F pH (final pH), 0.50%” value was found to be 4.5; the “F pH (final pH), 1.00%” value came to 4.5.

As to `NC(=O)C[C@H](N)C(=O)O` [L-Asparagine], the “F pH (final pH), 0.10%” value is 4 and the “F pH (final pH), 0.50%” value stood at 4.

As for `N[C@@H](CC(=O)O)C(=O)O` [L-Aspartic Acid], the “F pH (final pH), 0.10%” value was 4.5.

With `N[C@@H](CS)C(=O)O` [L-Cysteine], the “F pH (final pH), 0.10%” value came to 4; the “F pH (final pH), 0.50%” value came out at 4; the “F pH (final pH), 1.00%” value worked out at 4.5.

In the case of `N[C@@H](CCC(=O)O)C(=O)O` [L-Glutamic Acid], the “F pH (final pH), 0.10%” value is recorded as 4.5.

Turning to `NC(=O)CC[C@H](N)C(=O)O` [L-Glutamine], the “F pH (final pH), 0.10%” value turned out to be 4; the “F pH (final pH), 0.50%” value stood at 4.5; the “F pH (final pH), 1.00%” value stood at 4.5.

For `N[C@@H](Cc1c[nH]cn1)C(=O)O` [L-Histidine], the “F pH (final pH), 0.10%” value came to 4.5.

For the compound `N[C@@H](CCO)C(=O)O` [L-Homoserine], the “F pH (final pH), 0.10%” value is recorded as 4; the “F pH (final pH), 0.50%” value is 5; the “F pH (final pH), 1.00%” value is listed as 5.

For the compound `CC[C@H](C)[C@H](N)C(=O)O` [L-Isoleucine], the “F pH (final pH), 0.10%” value is recorded as 4.5.

`CC(C)C[C@H](N)C(=O)O` [L-Leucine]: the “F pH (final pH), 0.10%” value turned out to be 4.5 and the “F pH (final pH), 0.50%” value was found to be 4.5.

`CSCC[C@H](N)C(=O)O` [L-Methionine]: the “F pH (final pH), 0.10%” value was 4.5; the “F pH (final pH), 0.50%” value came out at 4; the “F pH (final pH), 1.00%” value came to 4.5.

Consider `Cl.NCCC[C@H](N)C(=O)O` [L-Ornthine], for which the “F pH (final pH), 0.10%” value is given as 4; the “F pH (final pH), 0.50%” value was 4.5; the “F pH (final pH), 1.00%” value came out at 4.5.

With `N[C@@H](Cc1ccccc1)C(=O)O` [L-Phenylalanine], the “F pH (final pH), 0.10%” value was determined as 5.

`O=C(O)[C@@H]1CCCN1` [L-Proline]: the “F pH (final pH), 0.10%” value stood at 4; the “F pH (final pH), 0.50%” value was 4.5; the “F pH (final pH), 1.00%” value is 4.5.

Regarding `N[C@@H](CO)C(=O)O` [L-Serine], the “F pH (final pH), 0.10%” value was found to be 3.5; the “F pH (final pH), 0.50%” value was found to be 4; the “F pH (final pH), 1.00%” value is recorded as 4.5.

Turning to `C[C@@H](O)[C@H](N)C(=O)O` [L-Threonine], the “F pH (final pH), 0.10%” value turned out to be 4.5; the “F pH (final pH), 0.50%” value was found to be 4.4; the “F pH (final pH), 1.00%” value stood at 5.

For the compound `N[C@@H](Cc1ccc(O)cc1)C(=O)O` [L-Tyrosine], the “F pH (final pH), 0.10%” value is on record as 4.5.

On to `CC(C)[C@H](N)C(=O)O` [L-Valine], for which the “F pH (final pH), 0.10%” value is reported as 4.5; the “F pH (final pH), 0.50%” value came out at 5; the “F pH (final pH), 1.00%” value is given as 4.5.

`CSCC[C@H](N)C(=O)N[C@@H](C)C(=O)O` [Met-Ala] (H-Met-Ala-OH): the “F pH (final pH), 0.10%” value is 4.
